PubChem BioAssay AID1259414, Drosophila RNAi Screening Center – 2018
Test: 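Host factors increasing or decreasing Wolbachia levels in cultured fly cells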 (primary screen). Cell system: Drosophila JW18 cells infected with Wolbachia. Knock-down reagent: long dsRNA against Drosophila genes, 0.25 µg dsRNA per well of a 384-well plate. Duration: 5 days. Conditions: cells persistently infected with Wolbachia before knock-down; no added drug. Measured: 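Automated imaging of bacterial rRNA staining divided by host cell count, reported as plate-normalised robust z-score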. Direction: Wolbachia per cell robust z: higher = more Wolbachia per host cell than the plate typical. Hit rule: 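Hit when robust z is 1.5 or more, or -1.5 or less, in at least two of three replicates; excludes dsRNAs with several or no targets, genes not expressed in JW18 and well A1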.
The screen tested about 24,000 reagents; shown is a random part of those with a known target gene and a result. Over the whole deposit, about 1,210 (5%) were called active. 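Inactive calls also include excluded dsRNAs with several or no targets, genes unexpressed in JW18, and well A1, regardless of score.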 Entries without a mark were called inactive. Names joined by + are all predicted targets of the reagent.

no.	gene knocked down	DRSC id	Wolbachia per cell robust z, rep 1	Wolbachia per cell robust z, rep 2	Wolbachia per cell robust z, rep 3
1	CG42816	DRSC11230	0.52	0.222	0.476
2	mirr	DRSC11369	0.729	0.803	0.377
3	mirr	DRSC25450	-1.19	0.0786	0.279
4	CG7896	DRSC16335	-0.221	-0.513	0.278
5	CG5056	DRSC02808	-0.00387	0.434	-0.553
6	CG14551	DRSC14894	0.578	0.322	0.11
7	zye	DRSC11784	-4.52	-0.843	0.254
8	ND-30	DRSC08243	-0.431	-0.0578	0.354
9	Golgin97	DRSC06895	0.305	0.0325	0.172
10	wuho	DRSC18101	0.196	0.311	-0.268
11	wuho	DRSC27950	-0.73	-0.444	-0.601
12	CG13609	DRSC14612	0.537	0.8	-0.0305
13	CG13609	DRSC22843	0.293	0.576	0.385
14	CG6793	DRSC10714	-0.439	-1.94	-1.51
15	CG6793	DRSC29291	0.735	0.0159	-0.000368
16	CG9068	DRSC07329	-1.31	-1.05	0.665
17	Su(fu)	DRSC16871	-0.38	-0.526	-0.844
18	Cpr66D	DRSC23178	1.23	-2.36	0.393
19	Cpr66D	DRSC25925	0.164	0.18	-0.736
20	CG32069 + Blos2	DRSC10621	0.42	-8.19	-0.0258
21	CG13407	DRSC14583	-1.67	-0.732	-2.92
22	CG13407	DRSC25675	-0.855	-0.0653	1.42
23	Mef2	DRSC07468	-2.07	-1.17	0.77
24	Mef2	DRSC25554	0.887	0.481	0.982
25	nompA	DRSC06329	0.115	-0.229	-0.291
26	CG4597	DRSC10432	1.6	0.597	-0.206
27	Ku80	DRSC02699	-0.619	0.932	0.577
28	Ku80	DRSC26861	0.47	-0.805	-0.677
29	Jheh2	DRSC06530	-1.53	0.0786	-0.79
30	Jheh2	DRSC25496	-0.396	-1.5	-0.858
31	CG17819	DRSC15279	-0.106	-1.43	1.16
32	COX5B	DRSC02115	0.481	1.02	0.818
33	CG1638	DRSC15132	1.58	-0.682	-0.106
34	CG1638	DRSC29986	0.388	0.824	0.546
35	RpS15	DRSC07151	2.18	3.19	-0.0779
36	RpS15	DRSC23462	2.81 (active)	8.12	6.93
37	Ir60e	DRSC04227	-1.34	1.28	-0.385
38	CG9616	DRSC16518	-0.86	-0.0933	-1.45
39	CG9616	DRSC27905	-3.87	0.244	1.68
40	l(3)neo38	DRSC14946	0.459	0.215	0.755
41	l(3)neo38	DRSC16138	0.64	-0.912	-4.65
42	l(3)neo38	DRSC23262	1.11	-7.89	2.16
43	l(3)neo38	DRSC27112	0.121	-0.271	-0.622
44	l(3)neo38	DRSC27668	0.939	1.45	1.1
45	HDAC4	DRSC19780	-0.291	0.768	0.167
46	HDAC4	DRSC25237	-0.475	0.86	0.441
47	HDAC4	DRSC40858	0.389	-0.104	0.715
48	LSm1	DRSC04458	-1.45	-0.0123	-0.696
49	mei-217 + mei-218	DRSC20349	-1.17	-1.55	-3.95
50	mei-217 + mei-218	DRSC29292	0.821	0.366	0.054
51	beat-IIIc	DRSC02438	0.138	0.554	0.37
52	beat-IIIc	DRSC02949	-2.37	-0.677	0.308
53	Gr58c	DRSC04136	-4.64	1.13	-0.0471
54	CG15908 + CG9410	DRSC04976	-2.34	-0.961	0.899
55	CG15908 + CG9410	DRSC25956	-0.513	-0.436	-0.0417
56	Sec71	DRSC01893	-2.12	0.262	0.418
57	GramD1B	DRSC00426	0.772	1.01	-0.0854
58	GramD1B	DRSC00591	0.434	-0.465	-0.567
59	GramD1B	DRSC23885	-0.695	-0.709	-1.23
60	GramD1B	DRSC28705	-0.861	-1.45	0.459
61	CG4572	DRSC15603	0.288	-0.426	-0.872
62	CG32985	DRSC02634	0.965	0.489	-0.156
63	CG32985	DRSC24453	0.196	-7.7	0.0496
64	CG13607	DRSC14610	0.412	-1.31	-0.493
65	CG9004	DRSC08617	0.0875	1.17	0.37
66	CG4230	DRSC02740	-0.0582	-0.725	-0.362
67	dpr12	DRSC04863	-0.157	-0.223	0.0843
68	dpr12	DRSC04892	-0.291	-7.45	-2.17
69	CRMP	DRSC12073	-1.65 (active)	-3.13	-1.58
70	CRMP	DRSC12345	-1.8	0.114	0.942
71	CRMP	DRSC27638	0.744	0.114	-0.523
72	wrd	DRSC16344	0.712	-4.27	1.33
73	wrd	DRSC23189	0.319	0.949	1.59
74	wrd	DRSC25929	0.216	0.146	0.211
75	ova	DRSC02879	0.402	0.833	0.155
76	CG45078 + fau + CG45076	DRSC16945	0.759	-0.0681	0.305
77	CG30259	DRSC04164	-0.531	-0.192	-3.83
78	CG30259	DRSC04165	0.0486	-0.545	0.963
79	CG13170	DRSC06298	-2.2	0.109	0.154
80	CG13170	DRSC25159	-0.0511	-0.831	0.496
81	CG6325	DRSC16020	0.472	-1.53	0.341
82	CG14566	DRSC11727	0.771	1.16	0.36
83	CG14566	DRSC25467	-0.443	0.397	-0.714
84	Fmr1	DRSC16674	0.708	-2.82	0.45
85	Fmr1	DRSC26781	-7.74	1.13	1.91
86	galla-2	DRSC10936	-0.141	0.311	1.53
87	galla-2	DRSC21949	-1.77 (active)	-2.24	-1.6
